From publication PMC8206078, “Identification of pyrogallol as a warhead in design of covalent inhibitors for the SARS-CoV-2 3CL protease” (Nature Communications, 2021)

Target: SARS-CoV-2 3CLpro (Severe acute respiratory syndrome coronavirus 2, UniProt P0DTD1)
Test: biochemical
Details: read-out: Inhibition (%) @10 μM

Question: With `O=c1c(O[C@@H]2O[C@H](CO)[C@H](O)[C@H](O)[C@H]2O)c(-c2ccc(O)c(O)c2)oc2cc(O)cc(O)c12` [Hyperoside] as the compound, how does the inhibition at 10 µM read?
Answer: Its inhibition at 10 µM is 5.2%.
